System: C. albicans
Test: Fatty acid competition (antagonism) in 96-well plates
Conditions: 48 h

SMILES: O=C([O-])CCCCCCC/C=C\C#CC#Cc1ccco1.[K+] [Compound IV″, potassium (Z)-14-(furan-2-yl)tetradeca-9-en-11,13-diynoate]
- effect of oleic acid / stearic acid on susceptibility: oleic acid (but not stearic acid) had an antagonistic effect

From patent publication US8722910B2, “Diyne compositions” (Evolva AG, priority 2009, dated 2014)
